Structures are written as SMILES.

The test concerns the target Replicase polyprotein 1ab (Severe acute respiratory syndrome coronavirus 2) (UniProt P0DTD1). Nature of the test: Time dependent inhibition of recombinant his tagged SARS CoV-2 main protease expressed in Escherichia coli BL21 assessed as ratio of Kinact/Ki using MCA-AVLQSGFR-K(DNP)-K-NH2 as substrate pre-incubated for 5 mins followed by substrate addition measured after 60 mins by FRET based assay.
Regarding `O=C(Sc1ncccn1)c1cc2ccccc2[nH]1`, the Ratio was found to be 58700 M⁻¹ s⁻¹.

In the case of `COc1nnc(SC(=O)c2cc3ccccc3[nH]2)s1`, the Ratio was 7870 M⁻¹ s⁻¹. To `Cc1nnc(SC(=O)c2cccc3cc[nH]c23)s1` belongs 3690 M⁻¹ s⁻¹; to `Cc1nnc(SC(=O)c2cc3ccccc3n2C)s1`, 7170 M⁻¹ s⁻¹; to `Cc1ccnc(SC(=O)c2cc3ccccc3[nH]2)n1`, 27200 M⁻¹ s⁻¹. As for `O=C(Sc1nc2ccccc2s1)c1cc2ccccc2[nH]1`, the figure is 14200 M⁻¹ s⁻¹; as for `O=C(Sc1nncs1)c1cc2ccccc2[nH]1`, 10700 M⁻¹ s⁻¹.

Consider `Cc1nnc(SC(=O)c2ccc3ccccc3c2)s1`, for which the Ratio turned out to be 6960 M⁻¹ s⁻¹.

For the origin of these results see ChEMBL document CHEMBL5131566, “Small-Molecule Thioesters as SARS-CoV-2 Main Protease Inhibitors: Enzyme Inhibition, Structure-Activity Relationships, Antiviral Activity, and X-ray Structure Determination” (J Med Chem, 2022).
